A mixed list of measured activities; the numbers were collected in NIAID ChemDB.

Shared fields: growth or infection tests; species: HIV-1; method: syncytia; measure: EC50

Neighbouring rows are from separate reports.

SMILES,strain,cells,changes,value
Nc1ncnc2c1ncn2CC(CF)OCP(=O)(O)O,IIIB TSAO-T(RT-E138K),CEM,RT-E138K,4 µM
CCc1cc(NCc2nc3c(Cl)ccc(Cl)c3o2)c(=O)[nH]c1C,TIBO-2(RT-K103N),CEM,RT-K103N,1.4 µM
CCOCn1c(Cc2cc(C)cc(C)c2)c(CC)c(=O)[nH]c1=O,IIIB nevirapine-resistant (RT Y181C),CEM,RT-Y181C,0.2 µM
CC(C)=CCOc1cc(NC(=S)c2ccoc2C)ccc1Cl,IIIB,CEM,RT-V179D,0.006 ± 0.04 µM
CC(C)=CCN1Cc2cc(Cl)cc3[nH]c(=S)n(c23)C[C@@H]1C,IIIB-Pyridinone(0.1)(RT-V179N,CEM,RT-V179N,1.1 µg/mL
CCOCn1c(Cc2cc(C)cc(C)c2)c(CC)c(=O)[nH]c1=O,IIIB TIBO R82913-resistant (RT K103N),CEM,RT-K103N,0.02 µg/mL
COC(=O)[C@H](C)NP(=O)(OC[C@@H]1C=C[C@H](n2cnc3c(N)ncnc32)O1)Oc1ccccc1,IIIB,MOLT-4/C8 + MOLT-4,,0.03 µM
CCN1C(=O)N(Cc2ccccc2)S(=O)(=O)c2cscc21,RF,MT-4,,28.2 µM
Nc1ccn([C@H]2CC[C@@H](CO)O2)c(=O)n1,IIIB,CEM,,0.05 µM
CC(C)=CCOc1cc(NC(=S)c2ccsc2C)ccc1Cl,IIIB,CEM,RT-L100I,0.5 ± 0.14 µM
CCOCn1c(Sc2ccccc2)c(CC)c(=O)[nH]c1=S,IIIB TIBO R82913-resistant (RT K103N),CEM,RT-K103N,0.77 µg/mL
CC(C)=CCN1Cc2cc(Cl)cc3[nH]c(=S)n(c23)C[C@@H]1C,Quin-0.02(RT-V106A),CEM,RT-V106A,1.6 µM
Cc1cn([C@@H]2O[C@H](CO[Si](C)(C)C(C)(C)C)C3(OS(=O)(=O)C=C3N)[C@H]2O[Si](C)(C)C(C)(C)C)c(=O)n(C)c1=O,IIIB-TIBO(0.5)(RT-L100I),CEM,RT-L100I,0.04 µg/mL
Nc1ncnc2c1ncn2[C@H]1CC[C@@H](CO)O1,IIIB,C8166,,17 µM
Cc1cn([C@@H]2O[C@H](CO[Si](C)(C)C(C)(C)C)C3(OS(=O)(=O)C=C3N)[C@H]2O[Si](C)(C)C(C)(C)C)c(=O)n(C)c1=O,TIBO-1(RT-L100I),CEM,RT-L100I,0.07 µM
CC(C)=CCN1Cc2cccc3[nH]c(=S)n(c23)C[C@@H]1C,IIIB TSAO-T(RT-E138K),CEM,RT-E138K,0.09 µM
N#CCN1C(=O)N(Cc2ccccc2)S(=O)(=O)c2cscc21,HE,MT-4,,4.2 µM
O=c1[nH]cnc2c1ncn2[C@H]1CC[C@@H](CO)O1,IIIB,CEM,RT-V179D,6.9 ± 6.18 µM
Cc1ccnc2c1NC(=O)c1cccnc1N2C1CC1,IIIB HEPT-resistant (RT Y188H),CEM,RT-Y188H,5 µg/mL
CN1C(=O)N(Cc2ccccc2)S(=O)(=O)c2cscc21,IIIB,CEM,,2.3 µM
CC(C)=CCN1Cc2cc(Cl)cc3[nH]c(=S)n(c23)C[C@@H]1C,IIIB TIBO R82913 STR-1 (RT L100I Y181C),CEM,RT-L100I Y181C,4 µM
CCN1C(=O)N(Cc2ccccc2Cl)S(=O)(=O)c2cscc21,IIIB,MT-4,,8.7 µM
CCc1cc(NCc2nc3c(Cl)ccc(Cl)c3o2)c(=O)[nH]c1C,IIIB TIBO R82913-resistant (RT K103N),CEM,RT-K103N,0.5 µg/mL
O=c1[nH]cnc2c1ncn2[C@H]1CC[C@@H](CO)O1,IIIB-TSAO-m3T(10)(RT-Y181C),CEM,RT-Y181C,5.5 µM
Cc1cn([C@@H]2O[C@H](CO[Si](C)(C)C(C)(C)C)C3(OS(=O)(=O)C=C3N)[C@H]2O[Si](C)(C)C(C)(C)C)c(=O)n(C)c1=O,IIIB TIBO R82150-resistant (RT L100I),CEM,RT-L100I,0.05 µM
Cc1c(Sc2ccccc2)n(COCCO)c(=O)[nH]c1=O,IIIB NEV(RT-V106A),CEM,RT-V106A,90 µg/mL
Nc1ccn([C@H]2CC[C@@H](CO)O2)c(=O)n1,GB8,JM,,0.007 µM
CC(C)Nc1cccnc1N1CCN(C(=O)c2cc3cc(NS(C)(=O)=O)ccc3[nH]2)CC1,IIIB,CEM,RT-V179D,0.13 ± 0.06 µM
CC(C)Nc1cccnc1N1CCN(C(=O)c2cc3ccccc3[nH]2)CC1,TSAO(RT-E138K),CEM,RT-E138K,0.07 µM

A second listing of 2 rows from above:

{"SMILES": "CCc1cc(NCc2nc3c(Cl)ccc(Cl)c3o2)c(=O)[nH]c1C", "strain": "TIBO-2(RT-K103N)", "cells": "CEM", "changes": "RT-K103N", "value": "1.4 µM"}
{"SMILES": "CC(C)=CCN1Cc2cc(Cl)cc3[nH]c(=S)n(c23)C[C@@H]1C", "strain": "Quin-0.02(RT-V106A)", "cells": "CEM", "changes": "RT-V106A", "value": "1.6 µM"}

Blank or dashed fields: not listed here. ECn is the concentration giving n% inhibition of infection, replication or growth.